# Measured values: the supplement of paper PMC9931576
# Human monoclonal antibodies against the spike receptor-binding domain (heavy:light variable regions). IC50 against pseudoviruses bearing the spike of naturally observed variants; lower = stronger; >10 µg/ml means not reached at the top dose. No active / inactive call. The stated detection limit is 0.0005 µg/ml; values near or below 0.001 µg/ml lie at the floor of the assay.
# B1: BD56-1317 (protein)
# chain 1: EVQLVESGGGLVQPGRSLTLSCAASGFTFDDYAMHWVRQAPGKGLEWVSGISWNSGTIGYADSVQGRFIISRDNAKNSLFLHMRSLRAEDTALYYCAKDIRGTMIDDTIYGMDVWGQGTTVTVSS
# chain 2: QSALTQPASVSGSPGQSITISCTGTSSDVGNYNYVSWYQQHPGKAPKLMIYDVNKRPSGISNRFSGSKSGNTASLTISGLQAEDEADYYCSSYTITSIVIFGGGTKLTVL
# B2: BD56-1316 (protein)
# chain 1: EVQLLESGGGLVQPGGSLRLSCAASGFTFSTSAMSWVRQAPGKGLEWVSVIYVGGGITYYADSVRGRFTISRDDSKNTLYLQMNSLRAEDTAIYYCARRDYCDYWGQGTLVTVSS
# chain 2: DIQMTQSPSTLSASVGDRVTITCRASQSISSWLAWYQQKPGKAPKLLIYKASSLESGVPSRFSGSGSGTEFTLTISSLQPDDFATYYCQQSNTYPYTFGQGTKLEIK
# B3: COV2-2064 (protein)
# chain 1: QVQLAQSGAEVKKPGASVKVSCKAAGYTFTSYDINWVRQATGQGLEWMGWMNSNSGNAGYAQKFQGRVTMTRDTSTSTAYMELSSLTSDDTAVYYCARMRTGWPTHGRPDDFWGRGTLVTVSS
# chain 2: QSVLTQPPSASGTPGQRVTISCSGSNSNIGSYTVNWYQQFPGTAPKLLIYDNNQRTSGVPDRFSGSKSGTSASLAISGLQSEDEANYYCLVWDDSLNGLVFGGGTKLTVL
# B4: BD56-1318 (protein)
# chain 1: EVQLVESGGGLVKPGGSLRLSCTASGFTFSTYSMNWVRQAPGKGLEWVSSISGSGDHIYYADSVKGRFTISRDNAKNSLYLQMNSLRAEDTAVFYCARDSEWGGDILTGFSHIFDYWGRGTLVTVSS
# chain 2: DIQMTQSPSSLSASVGDRVTITCRASQIISSSLNWYQQKPGGAPKLLIYAFSLHSGVPSRFSGSGSGTDFTLTISSLQPEDFATYYCQQSYSSPPTFGGGTTVEIK
# B5: BD56-1321 (protein)
# chain 1: QVQLVQSGAEVKKPGASVKVSCKASGYTFTTYYIHWVRQAPGQGLEWMGIINPSGGGTRYAQKFQGRVTMTRDTSTSTGYMELSSLRSEDTAVYFCARELVAPAAGYMDVWGKGTTVTVSS
# chain 2: SYVLTQPPSVSVAPGKTARITCGGNSIGSKSVHWYQQKPGQAPVLVVYDDSDRPSGIPERFSGSNSGNTATLTINRVEAGDEADYYCQVWDGSSDHFYVFGSGTKVTVL
# B6: BD56-1320 (protein)
# chain 1: QVQLVESGGGVVQTGRSLRLSCAASGFIFRSFGMHWVRQAPGKGLEWVAVISDDESKKYYADSVKGRFTISRDNSKNTLYLQMNSLKPEDTAVYYCARPPREYYDVLIDYYRGVIELGMDVWGQGTTVTVSS
# chain 2: QAVVTQEPSLTVSPGGTVTLTCGSNTGAVTSGHYPYWFQQKPGQAPRTLIYDTNNKHSWTPARFSGSLIGGKAALTLSGAQPEDEAYYYCLLSYSGAHVIFGGGTKVTVL
# Target: SARS-CoV-2 Omicron BA.1 spike pseudovirus
# Assay: pseudovirus neutralization IC50; higher = weaker neutralization
# Protocol: (§1)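 Single-round VSV luciferase pseudovirus mixed with antibody dilutions for 1 h and put on Huh-7 cells for about a day; IC50 from the dose curve.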
row,Binder,pseudovirus neutralization IC50 [mg/L]
1,B1,0.0201
2,B2,0.0907
3,B3,> 10
4,B4,> 10
5,B5,2.46
6,B6,1.27

# Target: SARS-CoV-2 Omicron BA.2 spike pseudovirus
# Assay: as above
# Protocol: as §1
row,Binder,pseudovirus neutralization IC50 [mg/L]
1,B1,0.0392
2,B2,0.0314
3,B3,> 10
4,B4,> 10
5,B5,2.66
6,B6,1.5

# Target: SARS-CoV-2 Omicron BA.2.75 spike pseudovirus
# Assay: as above
# Protocol: as §1
row,Binder,pseudovirus neutralization IC50 [mg/L]
1,B1,0.0227
2,B2,0.0215
3,B3,> 10
4,B4,> 10
5,B5,2.55
6,B6,> 10

# Target: SARS-CoV-2 Omicron BA.5 spike pseudovirus
# Assay: as above
# Protocol: as §1
row,Binder,pseudovirus neutralization IC50 [mg/L]
1,B1,> 10
2,B2,> 10
3,B3,> 10
4,B4,> 10
5,B5,4.65
6,B6,1.38

# Target: SARS-CoV-2 Omicron BQ.1.1 spike pseudovirus
# Assay: as above
# Protocol: as §1
row,Binder,pseudovirus neutralization IC50 [mg/L]
1,B1,> 10
2,B2,> 10
3,B3,> 10
4,B4,> 10
5,B5,3.05
6,B6,> 10

# Target: SARS-CoV-2 Omicron XBB spike pseudovirus
# Assay: as above
# Protocol: as §1
row,Binder,pseudovirus neutralization IC50 [mg/L]
1,B1,> 10
2,B2,1.6
3,B3,> 10
4,B4,> 10
5,B5,2.24
6,B6,> 10

# Target: SARS-CoV-2 early D614G spike pseudovirus
# Assay: as above
# Protocol: as §1
row,Binder,pseudovirus neutralization IC50 [mg/L]
1,B1,0.0194
2,B2,0.0839
3,B3,0.238
4,B4,6.53
5,B5,2.32
6,B6,0.314
